Pooled drug test results. Numbers come from NIAID ChemDB, via PubChem.

All rows: whole-cell or culture tests; species: HIV-1; measure: inhibition

Conditions beyond the fields shown may differ between rows. Inhibition is in % at the dose shown (toxicity tests: loss of growth or viability). An empty or dashed field is not shown.

smiles | cells | read by | strain or isolate | dose | result
O=c1[nH]c(=O)n([C@H]2C[C@H](O)[C@@H](CO)O2)cc1F | PBMC | p24 |  | 1.8 µM | 90%
CC(C)C[C@H](NC(=O)[C@H](C)NC(=O)C[C@H](O)[C@H](CC(C)C)NC(=O)[C@@H](NC(=O)[C@H](Cc1ccc(O)cc1)NC(=O)OCc1ccccc1)C(C)C)[C@@H](O)CC(=O)O | MT-4 | syncytia |  | 40 µM | 0%
CN1CCc2c(c(O)c3n2CCN(Cc2ccc(F)cc2)C3=O)C1=O | MT-4 | p24 / ELISA | IIIB | 0.39 µM | >95%
Nc1nc2c(ncn2[C@H]2CC[C@@H](CO)O2)c(=O)[nH]1 | ATH-8 + ATH8 | cytopathic effect / XTT | LAI | 20 µM | 100%
C[C@]1(O)CN(Cc2ccccc2)CC[C@@H]1O | CEM + CEM-SS | cytopathic effect | BRU | 100 µg/mL | 6.2%
Brc1cccc(C2ON=C(c3ccccc3)N2C23CC4CC(CC(C4)C2)C3)c1 | CEM | cytopathic effect / XTT |  | 200 µM | 34.2%
Cc1cn([C@H]2C=C[C@@H](CO)O2)c(=O)[nH]c1=O | MT-4 | p24 |  | 0.5 µg/mL | 100%
O=c1[nH]c(=O)n([C@H]2C[C@H](F)[C@@H](CO)O2)cc1CN1CCCCC1 | MT-4 | ELISA | IIIB | 100 µM | 0%
CC(=O)Oc1cc2[nH]cc(C(=O)C(=O)N3CCN(C(=O)c4ccccc4)CC3)c2cc1OC(C)=O | MT-2 | RT activity | BRU | 10 µM | 34%
C=C(C)[C@@H]1CC[C@]2(C(=O)O)CC[C@]3(C)C(CCC4[C@@]5(C)CC[C@H](OC(=O)CN(OC)[C@H]6O[C@@H](CO)[C@H](O)[C@H](O)[C@@H]6O)C(C)(C)C5CC[C@]43C)C12 |  | cytopathic effect | IIIB | 10 µM | 28%
Cc1c(C)c2c(c(C)c1OC(=O)CCC(=O)OC1CC(COP(=O)(O)OC3CC(COP(=O)(O)OC4CC(CO)OC4n4cnc5c(N)ncnc54)OC3n3cnc4c(N)ncnc43)OC1n1cnc3c(N)ncnc31)CCC(C)(CCCC(C)CCCC(C)CCCC(C)C)O2 | SupT1 + Sup-T1 | syncytia | IIIB | 300 µM | 95%
CC(C)CC(NC(=O)[C@H](C)NC(=O)C[C@H](O)[C@H](CC(C)C)NC(=O)[C@@H](NC(=O)[C@H](Cc1c[nH]c2ccccc12)NC(=O)OCc1ccccc1)C(C)C)[C@@H](O)CC(=O)O | MT-4 | syncytia |  | 40 µM | 0%
CN(C[C@@H](CCN1CCC2(CC1)CC(=O)c1ccccc12)c1cccc(Cl)c1)S(=O)(=O)c1ccccc1 | PBMC | RT activity | YU2 | 1.5 µM | 95%
CCOC(=O)c1cn2c(c1O)C(=O)N(Cc1ccc(Cl)cc1)CC2 | MT-4 | p24 / ELISA | IIIB | 1.02 µM | >95%
NC(=O)n1c(O)c(C(=O)c2cccs2)c2cc(Cl)ccc21 | H9 | p24 | MN | 45 µM | 69%
COc1cc(/C=C2\C(=O)N(c3ccccc3)N=C2c2ccccc2)cc(Br)c1OCC(N)=O | MT-2 | p24 | IIIB | 10 µM | 64.2%
O[C@H]1CCN(Cc2ccccc2)C[C@@H]1O | CEM + CEM-SS | cytopathic effect | BRU | 100 µg/mL | 2.3%
O=C(C(=O)N1CCN(C(=O)c2ccccc2)CC1)c1c[nH]c2c(Cl)cccc12 | MT-2 | RT activity | BRU | 10 µM | >98%
CCOC(=O)c1cn2c(c1O)C(=O)N(Cc1cccc(Cl)c1)CC2 | MT-4 | p24 / ELISA | IIIB | 1.25 µM | >95%
NCC(N)=O | H9 | p24 | SF2 | 100 µM | 99%
CN(C)c1ncnc2c1ncn2[C@@H]1O[C@H](CO)[C@@H](N)[C@H]1O | H9 | RT activity | X | 2 µg/mL | 95%
CC(C)C[C@H](NC(=O)[C@H](C)NC(=O)C[C@H](O)[C@H](CC(C)C)NC(=O)[C@@H](NC(=O)[C@H](Cc1ccc(O)cc1)NC(=O)OCc1ccccc1)C(C)C)[C@@H](O)CC(N)=O | MT-4 | syncytia |  | 40 µM | 0%
CCCCCCCCCCCCCCCCOCC(COC(=O)CCC(=O)OC1CC(COP(=O)(O)OC2CC(COP(=O)(O)OC3CC(CO)OC3n3cnc4c(N)ncnc43)OC2n2cnc3c(N)ncnc32)OC1n1cnc2c(N)ncnc21)OCCCCCCCCCCCCCCCC | SupT1 + Sup-T1 | syncytia | IIIB | 300 µM | 90%
COc1cccc2[nH]cc(C(=O)C(=O)N3CCN(C(=O)c4cccc(NC(=O)OC(C)(C)C)c4)C[C@H]3C)c12 | HeLa + HELA CD4+/CCR5 | luciferase |  | 10 µM | 95%
Nc1nc(N)c2ncn([C@@H]3O[C@H](CO)C[C@@H]3F)c2n1 | ATH-8 + ATH8 | cytopathic effect / XTT | LAI | 100 µM | 40%
FC(F)(F)c1ccc(C2ON=C(c3ccccc3)N2C23CC4CC(CC(C4)C2)C3)cc1 | CEM | cytopathic effect / XTT |  | 2 µM | 20.45%
Cc1cc(C)cc(S(=O)(=O)c2c(C(N)=O)[nH]c3ccc(Cl)cc23)c1 | MT-4 | p24 |  | 0.005 µM | 90%
O[C@H]1CCNC[C@@H]1O | CEM + CEM-SS | cytopathic effect | BRU | 10 µg/mL | 82%
Cc1cn([C@H]2C=C[C@@H](COC(=O)[C@@H](N)Cc3c[nH]c4ccccc34)O2)c(=O)[nH]c1=O | MT-4 | p24 |  | 0.1 µg/mL | 100%
Nc1ccccc1C(=O)N1CCN(C(=O)C(=O)c2c[nH]c3cccc(F)c23)CC1 | HeLa + HELA CD4+/CCR5 | luciferase |  | 10 µM | 84%
CC(C)c1cc(=O)oc2c(CN3CCCCC3)c(O)c3c(c12)OC(C)(C)C=C3 | MT-4 | RT activity / visual reading | 899A | 50 µM | 10%
COC(=O)c1cccc2c(C(=O)C(=O)N3CCN(C(=O)c4ccccc4)C(C(C)C)C3)c[nH]c12 | HeLa + HELA CD4+/CCR5 | luciferase |  | 10 µM | 95%
CC(C)c1cc(=O)oc2cc(-c3ccc(N)cc3)c3c(c12)OC(C)(C)C=C3 | MT-4 | RT activity / visual reading | 899A | 50 µM | 25%
CCOC(=O)c1cn2c(c1O)C(=O)N(Cc1ccccc1)CC2 | MT-4 | p24 / ELISA | IIIB | 20 µM | >95%
O=[N+]([O-])c1ccc(C2ON=C(c3ccccc3)N2C23CC4CC(CC(C4)C2)C3)cc1 | CEM | cytopathic effect / XTT |  | 63 µM | 38.33%
C=C1CC[C@@H](OC(=O)CCC(=O)OC2CC(COP(=O)(O)OC3CC(COP(=O)(O)OC4CC(CO)OC4n4cnc5c(N)ncnc54)OC3n3cnc4c(N)ncnc43)OC2n2cnc3c(N)ncnc32)C/C1=C/C=C1\CCC[C@]2(C)[C@@H]([C@@H](C)/C=C/[C@H](C)C(C)C)CC[C@@H]12 | SupT1 + Sup-T1 | syncytia | IIIB | 300 µM | 91.7%
NCC(=O)N1CCC[C@H]1C(=O)O | H9 | p24 | SF2 | 100 µM | 11%
C=C(C)[C@@H]1CC[C@]2(C(=O)O)CC[C@]3(C)C(CCC4[C@@]5(C)CC[C@H](OC(=O)CN(OC)C6O[C@@H](C)[C@H](O)[C@@H](O)[C@H]6O)C(C)(C)C5CC[C@]43C)C12 |  | cytopathic effect | IIIB | 10 µM | 14%
O=C(CSc1nc2ccc(NC(=O)c3ccccc3C(=O)O)cc2s1)NCc1ccccc1 | MT-2 | p24 | IIIB | 10 µM | 29%
Fc1cccc(C2ON=C(c3ccccc3)N2C23CC4CC(CC(C4)C2)C3)c1 | CEM | cytopathic effect / XTT |  | 6.3 µM | 34.45%
C=C(C)[C@@H]1CC[C@]2(C(=O)O)CC[C@]3(C)C(CCC4[C@@]5(C)CC[C@H](OC(=O)CN(OC)C6O[C@H](CO)[C@@H](O)C[C@H]6O)C(C)(C)C5CC[C@]43C)C12 |  | cytopathic effect | IIIB | 10 µM | 31%
CC1C[C@H](O)[C@@H](O)CN1Cc1ccccc1 | CEM + CEM-SS | cytopathic effect | BRU | 10 µg/mL | 55%
[N-]=[N+]=N[C@H]1C[C@H](n2cc(CN3CCN(CCO)CC3)c(=O)[nH]c2=O)O[C@@H]1CO | MT-4 | ELISA | IIIB | 100 µM | 0%
C[C@@H]1CN(C(=O)c2ccccc2)CCN1C(=O)C(=O)c1c[nH]c2c(F)cccc12 | HeLa + HELA CD4+/CCR5 | luciferase |  | 10 µM | >98%
NC(=O)CNC(=O)[C@@H]1CCCN1 | H9 | p24 | SF2 | 100 µM | 40%
COc1ccc(-c2cc3oc(=O)cc(C(C)C)c3c3c2C=CC(C)(C)O3)cc1 | MT-4 | RT activity / visual reading | 899A | 50 µM | 25%
CC(=O)N[C@@H](Cc1c[nH]c2ccccc12)C(=O)N[C@H](C(=O)N[C@@H](CC(C)C)[C@@H](O)CC(=O)N[C@H](C(=O)N[C@H](C(=O)OCc1ccccc1)C(C)C)C(C)C)C(C)C | MT-4 | syncytia |  | 40 µM | 0%
C=C(C)[C@@H]1CC[C@]2(C(=O)O)CC[C@]3(C)C(CCC4[C@@]5(C)CC[C@H](OC(=O)CN(OC)C6O[C@@H](CO)[C@H](O)[C@H](O)[C@H]6O)C(C)(C)C5CC[C@]43C)C12 |  | cytopathic effect | IIIB | 10 µM | 5%
C[C@H](Cn1cnc2c(N)ncnc21)OCP(=O)(O)OP(=O)(O)OCCOCn1cnc2c(=O)[nH]c(N)nc21 | Macrophage |  | BaL | 1 µM | 0%
O=c1[nH]c(=O)n([C@H]2C[C@H](F)[C@@H](CO)O2)cc1CN1CCOCC1 | MT-4 | ELISA | IIIB | 100 µM | 0%
CCOC(=O)c1cn2c(c1O)C(=O)N(Cc1cccc(F)c1)CC2 | MT-4 | p24 / ELISA | IIIB | 9.38 µM | >95%
CC[C@H](C)[C@H](NC(=O)C[C@H](O)[C@H](CC(C)C)NC(=O)[C@H](C)NC(=O)[C@H](CCC(=O)O)NC(C)=O)C(N)=O | MT-4 | ELISA / antigen | IIIB | 200 µM | 10%
O=C(NCc1cccnc1)C(=O)N/N=C\c1ccc(-c2cccc(Cl)c2)o1 | MT-2 | p24 | IIIB | 10 µM | 77.5%
CC[C@H](C)[C@H](NC(=O)C[C@H](O)[C@H](CC(C)C)NC(=O)[C@@H](NC(=O)[C@H](Cc1ccc(O)cc1)NC(=O)OCc1ccccc1)C(C)C)C(=O)N[C@@H](Cc1ccccc1)C(=O)O | MT-4 | syncytia |  | 40 µM | 0%
c1ccc(C2=NOC(c3ccccc3)N2C23CC4CC(CC(C4)C2)C3)cc1 | CEM | cytopathic effect / XTT |  | 63 µM | 53.58%
C=C(C)[C@@H]1CC[C@]2(C(=O)O)CC[C@]3(C)C(CCC4[C@@]5(C)CC[C@H](OC(=O)CN(OC)C6OC[C@H](O)[C@H](O)[C@@H]6O)C(C)(C)C5CC[C@]43C)C12 |  | cytopathic effect | IIIB | 10 µM | 20%
Cc1ccc(C(=O)N2CCN(C(=O)C(=O)c3c[nH]c4ccccc34)CC2)cc1 | MT-2 | RT activity | BRU | 10 µM | 61.8%
O=c1[nH]c(=O)n([C@H]2C[C@H](F)[C@@H](CO)O2)cc1CN1CCN(Cc2ccccc2)CC1 | MT-4 | ELISA | IIIB | 100 µM | 0%

A second listing of 6 rows from above:

smiles,cells,read by,strain or isolate,dose,result
O=c1[nH]c(=O)n([C@H]2C[C@H](F)[C@@H](CO)O2)cc1CN1CCOCC1,MT-4,ELISA,IIIB,100 µM,0%
CC1C[C@H](O)[C@@H](O)CN1Cc1ccccc1,CEM + CEM-SS,cytopathic effect,BRU,10 µg/mL,55%
Nc1nc(N)c2ncn([C@@H]3O[C@H](CO)C[C@@H]3F)c2n1,ATH-8 + ATH8,cytopathic effect / XTT,LAI,100 µM,40%
CC[C@H](C)[C@H](NC(=O)C[C@H](O)[C@H](CC(C)C)NC(=O)[C@@H](NC(=O)[C@H](Cc1ccc(O)cc1)NC(=O)OCc1ccccc1)C(C)C)C(=O)N[C@@H](Cc1ccccc1)C(=O)O,MT-4,syncytia,,40 µM,0%
COc1ccc(-c2cc3oc(=O)cc(C(C)C)c3c3c2C=CC(C)(C)O3)cc1,MT-4,RT activity / visual reading,899A,50 µM,25%
Cc1cn([C@H]2C=C[C@@H](COC(=O)[C@@H](N)Cc3c[nH]c4ccccc34)O2)c(=O)[nH]c1=O,MT-4,p24,,0.1 µg/mL,100%